From ChEMBL document CHEMBL1127929, “The synthesis and serine -lactamase inhibitory activity of some phosphonamidate analogues of dipeptides” (1994)

Chains of the proteins cited; added tags and fusions are not shown.
UniProt P62593, whole entry: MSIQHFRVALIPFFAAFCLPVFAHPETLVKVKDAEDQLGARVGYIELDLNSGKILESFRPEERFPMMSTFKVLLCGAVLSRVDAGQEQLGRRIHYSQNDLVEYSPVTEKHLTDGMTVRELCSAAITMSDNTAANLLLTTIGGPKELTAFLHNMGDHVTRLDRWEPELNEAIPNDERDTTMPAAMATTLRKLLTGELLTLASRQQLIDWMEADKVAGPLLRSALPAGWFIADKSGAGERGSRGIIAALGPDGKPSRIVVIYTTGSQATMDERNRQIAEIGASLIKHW

Target: Beta-lactamase TEM (Escherichia coli) (UniProt P62593)

`CC1(C)S[C@@H]2[C@H](NC(=O)[C@H](N)c3ccc(O)cc3)C(=O)N2[C@H]1C(=O)O` was tested, and the MIC was over 256 µg/mL.
